Compound potency records, mixed from different reports. Data source: NIAID ChemDB in PubChem.

Common to all: tests in culture; organism: Mycobacterium tuberculosis

A number after MIC or MFC names an inhibition level or a share of isolates. Blank or dashed fields: not listed here. a–b is a range or a potency band. Lines come from different laboratories, so protocols vary. Zones are inhibition diameters on agar. MIC bound comes from a single tested concentration. Inhibition is in % at the dose shown (toxicity tests: loss of growth or viability). ECn: concentration that inhibits the pathogen or its effect by n%.

smiles	strain or isolate	mutations	read by	measure	tested at	result
CCCC1(CN2c3ccccc3Sc3ccccc32)CCN(CC)C1.Cl	H37Rv		BACTEC	inhibition	12.5 µg/mL	94%
CCOc1cc2c(cc1F)n([O-])c(C)c(Cl)[n+]2=O	H37Rv			MIC		3.13 µg/mL
COc1cc(-c2cc(=O)c3cc(C)c(C)c(C(=O)O)c3o2)cc(OC)c1OC	H37Rv		BACTEC	MIC bound		>12.5 µg/mL
CCn1cc(C(=O)O)c(=O)c2cc(F)c(N3CCNCC3)cc21	22 isolates			MIC50		4 µg/mL
CCC(C)N(C(=S)NC)c1ccc(F)c(Cl)c1			visual reading	zone	1000 µg/mL	8.02 mm
CO[C@@H]1C(C(CCO)NC2CC2)OC2OC(C)(C)OC21	H37Rv			MIC		50 µg/mL
Cc1c(Sc2ccccc2)[n+](=O)c2cc(Cl)ccc2n1[O-]	H37Rv			inhibition	6.25 µg/mL	100%
c1ccc(-c2ccc(CNc3cccc(N4CCOCC4)c3)cc2)cc1	103471			MIC		8 µg/mL
Cc1ccc2c(c1)n([O-])c(C)c(Cl)[n+]2=O	H37Rv			inhibition	6.25 µg/mL	100%
O=c1ccc2c(N3CCOCC3)cc(N3CCOCC3)nc2[nH]1	H37Rv		BACTEC	inhibition	6.25 µg/mL	9%
O=C(Nn1c(-c2ccccc2)ccc1-c1ccccc1)c1ccncc1	LORA		turbidity	EC90		>67.8 µg/mL
CC(Oc1ccccc1)C(=O)N/N=C1\CCOc2ccccc21	H37Rv			inhibition	12.5 µg/mL	50–64%
CC1COc2c(N3CCN(C)CC3)c(F)cc3c(=O)c(C(=O)O)cn1c23	Praha 1	MDR	broth dilution	MIC99		1 µM
CCC(C)N(C(=S)NC)c1ccc(Cl)c(Cl)c1			visual reading	zone	1000 µg/mL	9.59 mm
S=C(S)NNc1ccccc1	H37Rv			MIC		>12.5 µg/mL
C[C@H]1COc2c(N3CCN(C)CC3)c(F)cc3c(=O)c(C(=O)O)cn1c23	Strain 32			MIC		0.125 µg/mL
CC1(C)OC2O[C@H](C(CCO)NC3CC3)C3OC(C)(C)OC3C2O1	H37Ra			MIC		>100 µg/mL
Cc1c(CN2CCOCC2)cc(-c2ccc(Cl)cc2)n1Cc1ccccc1	H37Rv			MIC		<12.5 µg/mL
CCCCCCCCCCCCCCCCNC(CCO)[C@H]1OC2OC(C)(C)OC2C2OC(C)(C)OC21	H37Rv			MIC		3.12 µg/mL
Cl.N=c1c2ccccc2nc2oc3ccc(Cl)cc3n12	H37Rv		BACTEC	inhibition	12.5 µg/mL	-35%
CCCCCCCCCCCCCCCCCCCCCCCCCCCCCCCC	H37Rv (ATCC 27294)		resazurin	MIC90		62.5 µg/mL
c1cc2c(N3CCCCC3)cc(N3CCOCC3)nc2nc1N1CCOCC1	H37Rv		BACTEC	EC50		>6.25 µg/mL
CO[C@@H]1C(C(CCO)NCCCCCCCC/C=C/CCCCCCCCN)OC2OC(C)(C)OC21	H37Ra			MIC		25 µg/mL
O=C(NCC(=O)N1CCN(c2ccc(N3C[C@H](Cn4ccnn4)OC3=O)cc2F)CC1)C1=CC=C([N+](=O)[O-])C1	SRI 4000	Ofloxacin-resistant	broth dilution / visual reading	inhibition	0.03 µM	56%
CC1COc2c(N3CCN(C)CC3)c(F)cc3c(=O)c(C(=O)O)cn1c23	SMI 17		agar	MIC		0.5 µg/mL
Cc1c(CN2CCOCC2)cc(-c2ccc(Cl)cc2)n1C1CCCCC1	H37Rv			inhibition	12.5 µg/mL	99%
CCOc1cc2c(cc1F)n([O-])c(C)c(Sc1ccccc1)[n+]2=O	H37Rv			MIC		>6.25 µg/mL
c1ccc(-c2ccc(CNc3ccc(N4CCOCC4)cc3)cc2)cc1	103471			MIC		4 µg/mL
NC[C@H]1O[C@H](O[C@H]2[C@H](O)[C@@H](O[C@H]3O[C@H](CO)[C@@H](O)[C@H](N)[C@H]3O)[C@H](N)C[C@@H]2N)[C@H](O)[C@@H](O)[C@@H]1O	Isolate TN6515			MIC		1.5 µg/mL
N#Cc1ncc(C[P+](c2ccccc2)(c2ccccc2)c2ccccc2)nc1N.[Cl-]	H37Rv		BACTEC	MIC bound		>12.5 µg/mL
Cc1ccc(-c2ccccc2)n1NC(=O)c1ccccc1	H37Rv (ATCC 27294)		resazurin	inhibition	100 µg/mL	100%
C[N+]1(CC(=O)c2ccc(O)c(O)c2)CCOCC1	H37Rv		BACTEC	inhibition	12.5 µg/mL	0%
Cc1c[nH]c(C(=O)NN)c1-c1ccc2c(-c3ccccc3)nc3ccccc3n12	H37Rv			MIC		>12.5 µg/mL
COc1c(N2CCNC(C)C2)c(F)cc2c(=O)c(C(=O)O)cn(C3CC3)c12	Strain 102			MIC		2 µg/mL
COc1cc2cc[n+]3c(C)c4ccc(OC)c(OC)c4cc3c2cc1OC.O=C([O-])CS(=O)(=O)O	H37Rv		BACTEC	MIC bound		>12.5 µg/mL
CCCCCCn1c(-c2ccc(Cl)cc2)cc(CN2CCN(C)CC2)c1C	103471			MIC		8 µg/mL
N#Cc1c[nH]n2ccnc12	H37Rv		BACTEC	MIC bound		>12.5 µg/mL
O=C(NCC(=O)N1CCN(c2ccc(N3C[C@H](Cn4ccnn4)OC3=O)cc2F)CC1)c1cc([N+](=O)[O-])cc([N+](=O)[O-])c1	H37Rv		visual reading	MIC		≤0.11 µM
Cc1c(S(=O)(=O)c2ccccc2)[n+](=O)c2ccccc2n1[O-]	H37Rv			MIC		6.25 µg/mL
CN[C@@H]1[C@@H](O)[C@@H](O[C@@H]2[C@@H](O)[C@H](O[C@H]3O[C@H](CN)CC[C@H]3N)[C@@H](N)C[C@H]2N)OC[C@]1(C)O	8666/2010	MDR	broth dilution	MIC99		1 µM
CNC(=S)N(c1ccc(Cl)c(Cl)c1)C(C)C			visual reading	MIC		>400 µg/mL
Clc1ccc(CNc2ccccc2-n2ccnc2)cc1	103471			MIC		8 µg/mL
CN(C)CSC(=S)NCCNC(=S)SCN(C)C	H37Rv		resazurin	inhibition	6.25 µg/mL	0%
CC(C)N(C(=S)Nc1ccccc1)c1ccc(Cl)c(Cl)c1			visual reading	zone	1000 µg/mL	11.92 mm
CNNC(=O)C(=O)n1ccnc1	H37Rv		BACTEC	MIC bound		>12.5 µg/mL
CC(C)N=c1cc2n(-c3ccc(Cl)cc3)c3ccccc3nc-2cc1Nc1ccc(Cl)cc1	Praha 4	MDR	broth dilution	MIC99		0.5 µM
Cc1c(Sc2ccccc2)[n+](=O)c2cc(F)c(F)cc2n1[O-]	H37Rv			inhibition	6.25 µg/mL	100%
O=C1c2ccccc2C(O)(C#Cc2ccccc2)c2c1oc1ccc3ccccc3c21	H37Rv		BACTEC	inhibition	12.5 µg/mL	-24%
CCCCCCCCCCCCCCCCNC(CCO)C1OC2OC(C)(C)OC2[C@@H]1OC	H37Ra			MIC		6.25 µg/mL
NC1=CN(Cc2ccccc2)C2=N/C(=C\c3ccco3)C(=O)N12			BACTEC	inhibition	0.5 µM	0%
CCCCCCn1c(-c2ccc(Cl)cc2)cc(CN2CCOCC2)c1C	103471			MIC		8 µg/mL
C=C(Cl)CN(CC(=C)Cl)NC(C)=O	H37Rv		BACTEC	MIC		≥12.5 µg/mL
O=[n+]1c(Sc2ccccc2)c(CBr)n([O-])c2ccc(C(F)(F)F)cc21	H37Rv			inhibition	6.25 µg/mL	77%
COC(=O)[C@H]1[C@H](O)[C@@H](C)[C@@H](O)[C@](C)(O)/C=C(\C)C2=C3C(=C(C)C(=O)c4c(O)c(c(C)c(OC(C)=O)c43)NC(=O)/C(C)=C/C=C\[C@@H](C)C(O)[C@@H](C)[C@H]1O)OCO2	TAC-R			MIC		<0.1 µg/mL
NC[C@@H]1O[C@H](O[C@H]2[C@@H](O)[C@H](O[C@@H]3[C@@H](O)[C@H](N)C[C@H](N)[C@H]3O[C@H]3O[C@H](CN)[C@@H](O)[C@H](O)[C@H]3N)O[C@@H]2CO)[C@H](N)[C@@H](O)[C@@H]1O	H37Rv			MBC		32 µg/mL
CCOC(=O)c1c[nH]c(C(=O)OCC)c1-c1cc2c(-c3ccccc3)nc3ccccc3n2c1	H37Rv			MIC		>12.5 µg/mL
CCC1CN(c2c(F)cc3c(=O)c(C(=O)O)cn(C4CC4)c3c2OC)CCN1	Isolate TN5355			MIC		0.2 µg/mL
CC[C@@H](CO)NCCN[C@@H](CC)CO	234/2005	MDR	broth dilution	MIC99		16 µM
O=P(O)(O)OC1OC(CO)C(O)C(O)C1O	H37Rv		BACTEC	MIC bound		>12.8 µg/mL
Cc1ccc(-c2ccccc2)n1NC(=O)c1ccncc1	LORA		turbidity	EC50		0.86 µg/mL
CN(C)C(=O)Nc1cc2c3c(c1)CCCN3CCC2	H37Rv		BACTEC	inhibition	12.5 µg/mL	3%
CN[C@@H]1[C@H](O)[C@H](NC)[C@H]2O[C@@]3(O)C(=O)C[C@@H](C)O[C@H]3O[C@@H]2[C@H]1O	H37Rv			MIC		16 µg/mL
NNC(=O)c1ccncc1	H37Rv		luminescence	inhibition	0.46 µM	90%
CO[C@@H]1C[C@@H](C[C@H]2CC[C@H](C)[C@H]([C@@H](C)C(=O)O)O2)O[C@]2(O[C@](C)([C@H]3CC[C@@](C)([C@@H]4O[C@@H]([C@H]5O[C@@](O)(CO)[C@H](C)C[C@@H]5C)C[C@@H]4C)O3)C[C@H]2C)[C@@H]1C	H37Rv		BACTEC	inhibition	12.5 µg/mL	100%
Clc1ccc2c(Cl)cc(N3CCOCC3)nc2n1	H37Rv		BACTEC	inhibition	6.25 µg/mL	38%
CN[C@@H]1[C@H](O[C@H]2[C@H](O[C@H]3[C@H](O)[C@@H](O)[C@H](N=C(N)N)[C@@H](O)[C@@H]3N=C(N)N)O[C@@H](C)[C@]2(O)C=O)O[C@@H](CO)[C@H](O)[C@H]1O	Praha 131	MDR	broth dilution	MIC99		>32 µM
NCC[C@H](O)C(=O)N[C@@H]1C[C@H](N)[C@@H](O[C@H]2O[C@H](CN)[C@@H](O)[C@H](O)[C@H]2O)[C@H](O)[C@H]1O[C@H]1O[C@H](CO)[C@@H](O)[C@H](N)[C@H]1O	H37Rv			MBC		4 µg/mL
NNC(=O)c1ccncc1	H37Rv (ATCC 27294)		turbidity	EC50		0.12 µg/mL
Cc1ccc2c(c1)n([O-])c(CBr)c(Sc1ccccc1)[n+]2=O	H37Rv			inhibition	6.25 µg/mL	0%
NNC(=O)c1ccncc1	Praha 4	MDR	broth dilution	MIC99		16 µM
CCCCCCCCCCCCCCCCC1OC2OC(C)(C)OC2[C@@H]1OC	H37Ra			MIC		12.5 µg/mL
O=c1nc(Nc2cccc(Cl)c2)oc2cc(Cl)oc(=O)c12	H37Rv		BACTEC	inhibition	12.5 µg/mL	18%
CCOC(=O)c1[nH]cc(C)c1-c1cc2c(-c3ccccc3)nc3ccccc3n2c1	H37Rv			inhibition	12.5 µg/mL	97%
Cc1ccc(C)n1Cc1ccccc1	103471			MIC		8 µg/mL
COCNC(=S)c1cc(C(=S)NCOC)c(C(=O)NC(C)(C)C)nc1C(=O)NC(C)(C)C	H37Rv		BACTEC	MIC bound		>6.25 µg/mL
CC(=O)Nc1ccc2c(Cl)cc(N3CCCCC3)nc2n1	H37Rv		BACTEC	EC50		>6.25 µg/mL
CN(CCCC#CC(C)(C)C)c1cccc2c1CCC(=O)N2	H37Rv			inhibition	6.25 µg/mL	100%
CN1CCN(c2ccccc2NCc2ccc(-c3ccccc3)cc2)CC1	103471			MIC		4 µg/mL
Nc1ccc2c(N3CCCCC3)cc(N3CCOCC3)nc2n1	H37Rv		BACTEC	inhibition	6.25 µg/mL	6%
Nc1cccc(C(=O)Nc2ccc3c(O)c(N=Nc4ccc(N=Nc5ccc(S(=O)(=O)O)cc5)cc4)c(S(=O)(=O)O)cc3c2)c1	H37Rv		BACTEC	MIC		≥12.5 µg/mL
CCCCCCCCCCCCCCCCNC(CCO)C1OC2OC(C)(C)OC2[C@@H]1OCc1ccccc1	H37Rv			MIC		12.5 µg/mL
CO[C@H]1/C=C/O[C@@]2(C)Oc3c(C)c(O)c4c(O)c(c(/C=N/N5CCN(C)CC5)c(O)c4c3C2=O)NC(=O)/C(C)=C\C=C\[C@H](C)[C@H](O)[C@@H](C)[C@@H](O)[C@@H](C)[C@H](OC(C)=O)[C@@H]1C	Praha 4	MDR	broth dilution	MIC99		>8 µM